Measured values from several laboratories, pooled; numbers as filed in NIAID ChemDB.

All rows: whole-cell or culture tests; agent: Candida albicans; endpoint: MIC

Blank or dashed fields: not listed here. a–b is a range or a potency band. Rows are shuffled and stem from different studies.

SMILES,strain or isolate,read by,result
CC(C/C=C/C=C/CC/C=C\C=C\CCC(C)(C)C)C(O)C(O)C(O)C(O)C(O)C1OC(=O)C(O)C1O,83-2-14 (Juntendo),-,12.5 µg/mL
COC(=O)C(C(=O)OC)C(CC(=O)c1ccccc1)c1ccccc1,ATCC 10231,-,>50 µg/mL
O=[N+]([O-])c1cccc2c1CCc1snnc1-2,-,-,12.5 µg/mL
Cc1c(N2CC(N)C(O)C2)c(F)cn2c(=O)c(C(=O)O)cc(C3CC3)c12.Cl,CCH442,-,100 µg/mL
c1cc2c[n+](c1)CCCCCCCCCCCCCCc1ccc[n+](c1)CCCCCCCCCCCCCC2,ATCC 10231,-,0.7 µg/mL
C=CCc1ccc(O)c(-c2ccc(O)c(CC=C)c2)c1,YL 328,broth dilution,64 µg/mL
CN1CCC2=C(CCCC2CCc2ccc(F)cc2)C1,1208E,-,31 µg/mL
CC1=C(N2C[C@@H]3CCCN[C@@H]3C2)C(F)=CN2C(=O)C(C(=O)O)=CC(C3CC3)C12,CCH442,-,>100 µg/mL
CC(C)(C)C1CCC(CN2C3=NC[C@@H](C4CCCCC4)N3C[C@H]2CC2CCCCC2)CC1,ATCC 10231,-,8–16 µg/mL
COP(=O)(OC)OC[C@@H](O)[C@@H](O)[C@H](O)[C@@H](N)CO,ATCC 10261,-,300 µg/mL
Cc1ccc2nc(/C(C#N)=C\c3cc4ccccc4nc3N3CCOCC3)[nH]c2c1,MTCC 227,broth dilution,>1000 µg/mL
C[C@@]12CCC[C@]3(C)C4=CC(=O)OC[C@]45O[C@@H]5C(OC1=O)[C@@H]23,1463D,-,32 µg/mL
CC(C)(C)C1CCC(CN2C3=NC[C@H](CC4CCCCC4)N3C[C@@H]2CC2CCCCC2)CC1,ATCC 10231,-,5–8 µg/mL
N#CC(Cc1cc2ccccc2nc1N1CCOCC1)c1nc2ccccc2[nH]1,MTCC 227,broth dilution,500 µg/mL
CC(CP(c1cccc(C(F)(F)F)c1)c1cccc(C(F)(F)F)c1)(CP(c1cccc(C(F)(F)F)c1)c1cccc(C(F)(F)F)c1)CP(c1cccc(C(F)(F)F)c1)c1cccc(C(F)(F)F)c1,-,-,500 µg/mL
O=c1c(-c2ccc(O)cc2)coc2cc(OCCN3CCOCC3)cc(O)c12,-,MTT,>50 µg/mL
O=c1ccc2cc(C(O)O)ccc2o1,ATCC 14053,-,1000 µg/mL
O=c1c(-c2ccc(O)cc2)coc2cc(OCCCN3CCOCC3)cc(O)c12,-,MTT,>50 µg/mL
C[C@@H]1[C@H](O)[C@@H](C)/C=C/C=C/CC/C=C/C=C/C=C/C=C/C(O[C@H]2O[C@H](C)[C@@H](O)[C@H](N)[C@@H]2O)CC2O[C@](O)(CC(O)C(O)CCC(O)CC(O)CC(O)CC(=O)O[C@H]1C)CC(O)C2C(=O)O,ATCC 10231,-,5 µg/mL
O=c1ccc2ccc([N+](=O)[O-])cc2o1,ATCC 14053,-,250 µg/mL
Cc1c(N2CCC3CNCC32)c(F)cn2c(=O)c(C(=O)O)cc(C3CC3)c12,CCH442,-,>100 µg/mL
FC(F)(F)c1cccc([Se][Se]c2cccc(C(F)(F)F)c2)c1,-,broth dilution,>64 µg/mL
O=c1c(-c2ccc(O)cc2)coc2cc(OCCn3ccnc3)cc(O)c12,-,MTT,>50 µg/mL
CN1CCC2=C(CCCC2CCc2ccc(Cl)c(Cl)c2)C1,2005E,-,8 µg/mL
Cc1c(N2CCC(C)(N)CC2)c(F)cn2c(=O)c(C(=O)O)cc(C3CC3)c12.Cl,CCH442,-,>100 µg/mL
O=C1Nc2ccc(F)cc2C1=Nc1ccc(Oc2ccc(N=C3C(=O)Nc4ccc(F)cc43)cc2)cc1,CIP 1180-79,-,<50 µg/mL
C1CCC(C[C@H]2CN3C(=NC[C@H]3CC3CCCCC3)N2CCC23CC4CC(CC(C4)C2)C3)CC1,ATCC 10231,-,5–8 µg/mL
COc1ccc(OC)c2c1CCc1[se]nnc1-2,-,-,12.5 µg/mL
O=c1c(-c2ccc(O)cc2)coc2cc(OCCCCNCc3ccco3)cc(O)c12,-,MTT,>50 µg/mL
C1CCC([C@@H]2CN3C(=NC[C@H]3C3CCCCC3)N2CCC23CC4CC(CC(C4)C2)C3)CC1,ATCC 10231,-,32–64 µg/mL
C[C@H]1[C@H]2CC[C@H]3[C@@H]4CC=C5C[C@@H](N(C)C)CC[C@]5(C)[C@H]4CC[C@]23CN1C,-,-,31–62 µg/mL
Cc1c(N2CCC(C)(N)C2)c(F)cn2c(=O)c(C(=O)O)cc(C3CC3)c12.Cl,CCH442,-,>100 µg/mL
COc1ccc([Se][Se]c2ccc(OC)cc2)cc1,-,broth dilution,4–32 µg/mL
Clc1ccc(CCC2CCCc3cnccc32)cc1,2402E,-,8 µg/mL
CCC(C)n1ncn(-c2ccc(N3CCN(c4ccc(OC[C@H]5CO[C@](Cn6cncn6)(c6ccc(Cl)cc6Cl)O5)cc4)CC3)cc2)c1=O,Isogenic isolate 5 MDR1 (25X),-,0.03 µg/mL
c1ccc(CC2CCCc3cnccc32)cc1,1208E,-,31 µg/mL
CCCN(CCC)CCCOc1cc(O)c2c(=O)c(-c3ccc(O)cc3)coc2c1,-,MTT,>50 µg/mL
CN(C/C=C/C#CC(C)(C)C)Cc1cccc2ccccc12,DAY364 (genotype CNB1/CNB1),-,0.39 µg/mL
CC[C@H]1OC(=O)C=C2C1=CC1OC(=O)[C@@]3(C)CCC[C@@]2(C)[C@@H]13,ATCC 90029,-,8 µg/mL
CCC[C@H](N)[C@@H]1CCN(c2c(F)cn3c(=O)c(C(=O)O)cc(C4CC4)c3c2C)C1.Cl,CCH442,-,6.2 µg/mL
Cc1c(N=C2C(=O)Nc3ccccc32)cccc1N=C1C(=O)Nc2ccccc21,CIP 1180-79,-,<100 µg/mL
CC1=C(CCCc2ccccc2)CCN(C)C1,C316,-,31 µg/mL
CCCCCCCCC[C@@H](O)[C@H](C)N,MTCC 854,-,37.5 µM
CCc1ccc2c(c1)C(=Nc1c(CC)cc(Cc3cc(CC)c(N=C4C(=O)N(CC)c5ccc(CC)cc54)c(CC)c3Cl)c(Cl)c1CC)C(=O)N2CC,CIP 1180-79,-,<50 µg/mL
CN1CCC2=C(CCCC2CCc2ccc(Cl)cc2)C1,2005E,-,8 µg/mL
O=c1c(-c2ccc(O)cc2)coc2cc(OCCCCN3CCOCC3)cc(O)c12,-,MTT,>50 µg/mL
N#CC(C#N)C(CC(=O)c1ccccc1)c1ccc2ccccc2c1,ATCC 10231,-,>50 µg/mL
CC(C)(C)C1CCC(CN2C3=NC[C@@H](C4CCCCC4)N3C[C@H]2C2CCCCC2)CC1,ATCC 10231,-,>64 µg/mL
O=[N+]([O-])c1cccc2c1CCc1[se]nnc1-2,-,-,12.5 µg/mL
Cc1c(N2C[C@@H](N)[C@H](C(F)(F)F)C2)c(F)cn2c(=O)c(C(=O)O)cc(C3CC3)c12.Cl,CCH442,-,>100 µg/mL
CC1=C(N2CCC3C(N)CCCC3C2)C(F)=CN2C(=O)C(C(=O)O)=CC(C3CC3)C12,CCH442,-,<100 µg/mL
Cc1ccc2nc(C(C#N)Cc3cc4ccccc4nc3N3CCOCC3)[nH]c2c1,MTCC 227,broth dilution,250 µg/mL
CC1=C(N2CC[C@@H](ON)C2)C(F)=CN2C(=O)C(C(=O)O)=CC(C3CC3)C12,CCH442,-,>100 µg/mL
O=c1c(-c2ccc(O)cc2)coc2cc(OCCCN3CCNCC3)cc(O)c12,-,MTT,>50 µg/mL
COc1cc2cc(/C=C/C(=O)c3ccccc3)c(Cl)nc2cc1OC,ATCC 10231,-,>50 µg/mL
CCN1C2=NC[C@H](Cc3ccccc3)N2C[C@@H]1CC1CCCCC1,ATCC 10231,-,>64 µg/mL
O=C(/C=C/c1ccc(Cl)cc1Cl)c1ccc(Cl)cc1Cl,ATCC 10231,-,>50 µg/mL
CN(C/C=C/c1ccccc1)Cc1cccc2ccccc12,57 strains,-,>100 µg/mL
CC1(C)C=Cc2c(c3c(c4ccc(=O)oc24)OC(C)(C)C=C3)O1,ATCC 14053,-,500 µg/mL
CN1CCC2=C(CCCC2CCc2ccccc2Cl)C1,2005E,-,62 µg/mL
Cc1c(N2CCCC(C)(N)C2)c(F)cn2c(=O)c(C(=O)O)cc(C3CC3)c12.Cl,CCH442,-,>100 µg/mL
O=C1Nc2ccccc2C1=Nc1ccc(C(=O)c2ccc(N=C3C(=O)Nc4ccccc43)cc2)cc1,CIP 1180-79,-,<50 µg/mL
COc1cc2ccc(=O)oc2cc1OC,ATCC 14053,-,500 µg/mL
C[C@H](CCC(=O)NCCNCCNC(=O)CC[C@@H](C)[C@H]1CCC2C3CCC4C[C@H](O)CC[C@]4(C)C3C[C@H](C)[C@@]21O)[C@H]1CCC2C3CCC4C[C@H](O)CC[C@]4(C)C3C[C@H](C)[C@@]21O,Isolate 2,-,0.012 µM
Cc1cnccc1CCCc1ccc(F)cc1,C316,-,31 µg/mL
COc1cc2ccc(=O)oc2cc1O,ATCC 14053,-,500 µg/mL
COc1cc(O)c2c(c1)C(=O)c1c(cc3c(c1O)-c1c(cc(C)c(C(=O)NC(CO)C(=O)O)c1O)[C@H](OC1OC(C)C(O)C(OC4OCC(O)C(O)C4O)C1O)C3O)C2=O,ATCC 38247,-,3.1 µg/mL
c1cc2c[n+](c1)CCCCCCCCCCCCCc1ccc[n+](c1)CCCCCCCCCCCCC2,ATCC 10231,-,0.12 µg/mL
CC1=C(N2CC[C@H]([C@H](N)C(F)(F)F)C2)C(F)=CN2C(=O)C(C(=O)O)=CC(C3CC3)C12,CCH442,-,>100 µg/mL
N#C/C(=C/c1cc2ccccc2nc1N1CCOCC1)c1nc2ccccc2[nH]1,MTCC 227,broth dilution,1000 µg/mL
Cc1c(N2C[C@@H](N)[C@H](C(F)(F)F)C2)c(F)cn2c(=O)c(C(=O)O)cc(C3CC3)c12,CCH442,-,>100 µg/mL
CC(C)(C)C1CCC(CN2C3=NC[C@H](C4CCCCC4)N3C[C@H]2C2CCCCC2)CC1,ATCC 10231,-,>64 µg/mL
COc1ccc(C(=O)/C=C/c2ccc3ccccc3c2)c(OC)c1,ATCC 10231,-,>50 µg/mL
CCNCC1CCN(c2c(F)cn3c(=O)c(C(=O)O)cc(C4CC4)c3c2C)CC1.Cl,CCH442,-,>100 µg/mL
Cc1ccc(/C=C/C(=O)c2ccccc2)cc1,ATCC 10231,-,>50 µg/mL
C1CCC(C[C@@H]2CN3C(=NC[C@@H]3C3CCCCC3)N2CCC23CC4CC(CC(C4)C2)C3)CC1,ATCC 10231,-,3–4 µg/mL

8 of the rows above, restated:

SMILES	strain or isolate	read by	result
Cc1c(N2CC(N)C(O)C2)c(F)cn2c(=O)c(C(=O)O)cc(C3CC3)c12.Cl	CCH442	-	100 µg/mL
CC1=C(N2CCC3C(N)CCCC3C2)C(F)=CN2C(=O)C(C(=O)O)=CC(C3CC3)C12	CCH442	-	<100 µg/mL
CCCCCCCCC[C@@H](O)[C@H](C)N	MTCC 854	-	37.5 µM
CC[C@H]1OC(=O)C=C2C1=CC1OC(=O)[C@@]3(C)CCC[C@@]2(C)[C@@H]13	ATCC 90029	-	8 µg/mL
C[C@H](CCC(=O)NCCNCCNC(=O)CC[C@@H](C)[C@H]1CCC2C3CCC4C[C@H](O)CC[C@]4(C)C3C[C@H](C)[C@@]21O)[C@H]1CCC2C3CCC4C[C@H](O)CC[C@]4(C)C3C[C@H](C)[C@@]21O	Isolate 2	-	0.012 µM
COc1cc2cc(/C=C/C(=O)c3ccccc3)c(Cl)nc2cc1OC	ATCC 10231	-	>50 µg/mL
CCCN(CCC)CCCOc1cc(O)c2c(=O)c(-c3ccc(O)cc3)coc2c1	-	MTT	>50 µg/mL
COc1ccc(C(=O)/C=C/c2ccc3ccccc3c2)c(OC)c1	ATCC 10231	-	>50 µg/mL